Measured values from several laboratories, pooled; numbers as filed in NIAID ChemDB.

Shared fields: tests on isolated targets

Percent inhibition refers to the dose given; in toxicity tests it is the harm to the cells.

smiles	read by	read-out	strain or isolate	target	agent	dose	value
CC(=O)N[C@H]1[C@H]([C@H](O)[C@H](O)CO)OC(C(=O)O)=C[C@@H]1N	-	Ki	-	Neuraminidase	Influenza A virus	-	0.05 µM
O=P(O)(O)OP(=O)(O)O	-	IC50	-	RNA-dependent RNA polymerase	Influenza virus	-	450 µM
CCCCCCCC(=O)N[C@@H]([C@@H]1OC(C(=O)O)=C[C@H](N=C(N)N)[C@H]1NC(C)=O)[C@H](O)CO	-	IC50	A/PR/8/34	Sialidase	Influenza A virus	-	0.047 µg/mL
CCC(CC)[C@H](NC(C)=O)[C@@H]1[C@H](O)[C@@H](C(=O)O)C[C@H]1N=C(N)N	-	IC50	WILD TYPE (274)	Influenza virus neuraminidase	Influenza A virus	-	0.0005 µM
CCO[C@@H]([C@@H]1OC(C(=O)O)=C[C@H](N=C(N)N)[C@H]1NC(C)=O)[C@H](O)CO	-	IC50	A/PR/8/34	Sialidase	Influenza A virus	-	0.0146 µg/mL
CC(=O)Nc1c(N=C(N)N)cc(C(=O)O)cc1[C@H](O)[C@H](O)CO	-	IC50	Influenza A/Shandong/09/93 (H3N2)	Neuraminidase	Influenza A virus	-	20 µM
COCON1C(=O)[C@H]([C@H](O)c2ccc(OC)cc2)N(Cc2ccc(OC)cc2)[C@@H](Cc2ccccc2)C1=O	-	IC50	-	Transcriptase	Influenza A virus	-	>200 µM
NC(N)=N[C@H]1C=C(C(=O)O)O[C@@H]([C@H](O)[C@H](O)CO)C1	-	IC50	Victoria	Influenza B sialidase	Influenza B virus	-	>400 µM
CC(=O)N[C@H]1C(OC2CCCCC2)C=C(C(=O)O)C[C@@H]1N	-	IC50	-	Neuraminidase	Influenza A virus	-	0.21 µM
CC(=O)N[C@@H]([C@@H]1OC(C(=O)O)=C[C@H](N=C(N)N)[C@H]1NC(C)=O)[C@H](O)CO	-	IC50	A/PR/8/34	Sialidase	Influenza A virus	-	0.0181 µg/mL
CC(=O)Nc1ccc(C(=O)O)cc1N	-	IC50	B/LEE/40	Neuraminidase	Influenza B virus	-	>20000 µM
CCC(=O)c1c(O)n(O)c2cc(NC(=O)Nc3cccc(C(=O)O)c3)ccc12	nucleotide incorporation	IC50	PR/8/34	Endonuclease	Influenza A virus	-	14 µM
COCON1C(=O)/C(=C\C(C)C)N(Cc2ccc(OC)cc2)[C@@H](CC(C)C)C1=O	-	IC50	-	Transcriptase	Influenza A virus	-	>200 µM
CC[C@H](C)OC1C=C(C(=O)O)C[C@H](N)[C@H]1NC(C)=O	-	IC50	-	Neuraminidase	Influenza A virus	-	0.0008 µM
COCON1C(=O)/C(=C/C(C)C)N(Cc2ccc(OC)cc2)[C@@H](CC(C)C)C1=O	-	IC50	-	Transcriptase	Influenza A virus	-	>200 µM
O=P(O)(O)CP(=O)(O)O	-	IC50	-	RNA-dependent RNA polymerase	Influenza virus	-	>500 µM
COCON1C(=O)/C(=C\C(C)C)N(Cc2ccc(OC)cc2)[C@@H](Cc2ccccc2)C1=O	-	IC50	-	Transcriptase	Influenza A virus	-	>200 µM
CC(C)[C@H](C(=O)NC(=S)NC(=O)NC(C)(C)C)c1ccc(Cl)cc1	-	IC50	H1N1	Neuraminidase	Influenza A virus	-	0.26 µM
CC(O)(P(=O)(O)O)P(=O)(O)O	-	IC50	-	RNA-dependent RNA polymerase	Influenza virus	-	>500 µM
CC(C)CC1=N/C(=C\c2ccc(F)cc2)C(=O)NC1=O	-	IC50	-	Transcriptase	Influenza A virus	-	365 µM
CCC(CC)Nc1cc(C(=O)O)ccc1N1C(=O)CCC1(CO)CO	-	IC50	Subtype N1	Neuraminidase	Influenza A virus	-	79 µM
CC(N)C12CC3CC(CC(C3)C1)C2	nucleotide incorporation	inhibition	A/PR/1/74 RNP	Virion transcriptase	Influenza A virus	200 µg/mL	10%
CCC(=O)N[C@@H]([C@@H]1OC(C(=O)O)=C[C@H](N=C(N)N)[C@H]1NC(C)=O)[C@H](O)CO	-	IC50	A/PR/8/34	Sialidase	Influenza A virus	-	0.048 µg/mL
CC(=O)N[C@H]1[C@H]([C@H](O)[C@H](O)CO)OC(C(=O)O)=C[C@@H]1N	-	IC50	A/Brazil/11/78 (H1N1)	Sialidase	Influenza A virus	-	0.13 µM
CCCOC1C=C(C(=O)O)C[C@H](N)[C@H]1NC(C)=O	-	IC50	-	Neuraminidase	Influenza A virus	-	0.06 µM
CCC(CC)O[C@@H]1C(Cl)=C(C(=O)O)C[C@H](N)[C@H]1NC(C)=O	-	IC50	A/PR/8/34	Influenza virus neuraminidase	Influenza A virus	-	3.4 µM
CCOc1cc(OCC)nc(NC(=S)NC(=O)c2ccc(-c3ccccc3Cl)o2)n1	-	IC50	H1N1	Neuraminidase	Influenza A virus	-	9.5 µM
CC(=O)Nc1ccc(C(=O)O)cc1N	-	IC50	Memphis/3/89	Neuraminidase	Influenza B virus	-	>20000 µM
O=P(O)(O)C(O)P(=O)(O)O	-	IC50	-	RNA-dependent RNA polymerase	Influenza virus	-	>500 µM
O=C(NC(=S)Nc1nc(Cl)cc(Cl)n1)c1ccc(-c2ccccc2Cl)o1	-	IC50	H1N1	Neuraminidase	Influenza A virus	-	1.6 µM
O=C(O)C(O)P(=O)(O)O	-	IC50	-	RNA-dependent RNA polymerase	Influenza virus	-	>500 µM
COCON1C(=O)/C(=C/c2cccc(F)c2)N(Cc2ccc(OC)cc2)[C@@H](CC(C)C)C1=O	-	IC50	-	Transcriptase	Influenza A virus	-	>200 µM
O=C(O)C(=O)O	-	IC50	-	RNA-dependent RNA polymerase	Influenza virus	-	>500 µM
COCON1C(=O)[C@H]([C@H](OS(C)(=O)=O)c2ccc(F)cc2)N(Cc2ccc(OC)cc2)[C@@H](Cc2ccccc2)C1=O	-	IC50	-	Transcriptase	Influenza A virus	-	>200 µM
COC(=O)NC(=S)NC(=O)NC(C)(C)C	-	IC50	H1N1	Neuraminidase	Influenza A virus	-	1.6 µM
COCON1C(=O)/C(=C/c2ccc(F)cc2)N(Cc2ccc(OC)cc2)[C@@H](CC(C)C)C1=O	-	IC50	-	Transcriptase	Influenza A virus	-	>200 µM
O=C(O)P(=O)(O)O	-	IC50	-	RNA-dependent RNA polymerase	Influenza virus	-	30 µM

Repeating the final 4 entries:

COCON1C(=O)[C@H]([C@H](OS(C)(=O)=O)c2ccc(F)cc2)N(Cc2ccc(OC)cc2)[C@@H](Cc2ccccc2)C1=O ; read-out: IC50 ; target: Transcriptase ; agent: Influenza A virus ; value: >200 µM
COC(=O)NC(=S)NC(=O)NC(C)(C)C ; read-out: IC50 ; strain or isolate: H1N1 ; target: Neuraminidase ; agent: Influenza A virus ; value: 1.6 µM
COCON1C(=O)/C(=C/c2ccc(F)cc2)N(Cc2ccc(OC)cc2)[C@@H](CC(C)C)C1=O ; read-out: IC50 ; target: Transcriptase ; agent: Influenza A virus ; value: >200 µM
O=C(O)P(=O)(O)O ; read-out: IC50 ; target: RNA-dependent RNA polymerase ; agent: Influenza virus ; value: 30 µM

An empty or dashed field is not shown. Lines come from different laboratories, so protocols vary. ICn: concentration for n% inhibition.